The values that follow come from article PMC8755798 (Nature Communications, 2022).

In general, stoichiometry N refers to a count of units in the complex or per binding partner.

Sequences and labels used below:
B3: proteasome α-subunit Δ7PrcA, Mycobacterium tuberculosis (natural protein)
chain: not shown

Experiment in all cases: cryo-EM structure
For data set [1], the target named is B3. Particulars: both partners purified.
Data set [2] addresses mycobacterial proteasome ATPase (Mpa), Mycobacterium tuberculosis, wild type (Mycobacterium tuberculosis). The note with it: both partners purified.
The data set “cryo-EM structure” deals with the molecule itself.

B1: proteasome β-subunit Δ57PrcB, Mycobacterium tuberculosis (natural protein)
chain: not shown
As for B1, the binding result in data set [1] was “binds”.

B2: open-gate 20S proteasome core particle (Δ7PrcA, Δ57PrcB), Mycobacterium tuberculosis (complex)
chain 1: not shown
chain 2: not shown
notes: copies: 14 + 14
Consider B2, for which the binding result in data set [2] was “binds”.
For B3, the “stoichiometry N” value in the data set “cryo-EM structure” was found to be 7. Also, in data set [2], the binding result was “binds”.
